# Source: the supplement of paper PMC3578754
# Tests used:
# Experiment in all cases: fold change of IC50 against reference virus; higher = more resistant
# delavirdine = compound: CC(C)Nc1cccnc1N1CCN(C(=O)c2cc3cc(NS(C)(=O)=O)ccc3[nH]2)CC1 [delavirdine]
# Protocol: (§1)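 Cell-culture drug susceptibility tests of virus bearing the reverse transcriptase of each isolate, gathered from many studies.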
# nevirapine = compound: Cc1ccnc2c1NC(=O)c1cccnc1N2C1CC1 [nevirapine]
# Protocol: as §1
# efavirenz = compound: O=C1Nc2ccc(Cl)cc2[C@@](C#CC2CC2)(C(F)(F)F)O1 [efavirenz]
# Protocol: as §1
# stavudine = compound: Cc1cn([C@H]2C=C[C@@H](CO)O2)c(=O)[nH]c1=O [stavudine]
# Protocol: as §1
# didanosine = compound: O=c1[nH]cnc2c1ncn2[C@H]1CC[C@@H](CO)O1 [didanosine]
# Protocol: as §1
# zidovudine = compound: Cc1cn([C@H]2C[C@H](N=[N+]=[N-])[C@@H](CO)O2)c(=O)[nH]c1=O [zidovudine]
# Protocol: as §1
test system,measurement,setting,value
"HIV-1 isolate 15 (reverse transcriptase changes: K102Q K103N S162C P225H K277R, study 53)",fold change of IC50 against reference virus,delavirdine,14
same,fold change of IC50 against reference virus,nevirapine,150
same,fold change of IC50 against reference virus,efavirenz,167
"HIV-1 isolate 28 (reverse transcriptase changes: K102Q S162C T215Y K277R, study 9)",fold change of IC50 against reference virus,stavudine,2.9
same,fold change of IC50 against reference virus,didanosine,2.9
same,fold change of IC50 against reference virus,nevirapine,2
same,fold change of IC50 against reference virus,zidovudine,15.1
"HIV-1 isolate 39 (reverse transcriptase changes: K49R K103N K122E S162C E169D I178M M184V I195T T200A R211K M230L V245M D250E K275Q V276I T286A I293V P294T, study 70)",fold change of IC50 against reference virus,delavirdine,≥ 250
same,fold change of IC50 against reference virus,nevirapine,600
same,fold change of IC50 against reference virus,efavirenz,270
"HIV-1 isolate 56 (reverse transcriptase changes: K122E V179F Y181C F214L A272P K277R A376T A400T D460N S468T H483Y K512Q S519N, study 85)",fold change of IC50 against reference virus,efavirenz,9.4
"HIV-1 isolate 127 (reverse transcriptase changes: K122E F214L A272P K277R M357T A376T A400T N447S D460N S468T S519N, study 35)",fold change of IC50 against reference virus,stavudine,1
same,fold change of IC50 against reference virus,didanosine,1
same,fold change of IC50 against reference virus,nevirapine,1
same,fold change of IC50 against reference virus,zidovudine,1
"HIV-1 isolate 141 (reverse transcriptase changes: M41L V60I D67N L74V K102Q S162C G190E T215C K219E K277R I293V, study 55)",fold change of IC50 against reference virus,delavirdine,4
same,fold change of IC50 against reference virus,nevirapine,600
same,fold change of IC50 against reference virus,efavirenz,300
"HIV-1 isolate 184 (reverse transcriptase changes: K102Q S162C G190S K277R, study 110)",fold change of IC50 against reference virus,delavirdine,0.4
same,fold change of IC50 against reference virus,nevirapine,206
same,fold change of IC50 against reference virus,efavirenz,47
"HIV-1 isolate 197 (reverse transcriptase changes: K102Q K103N S162C Y188L K277R, study 53)",fold change of IC50 against reference virus,delavirdine,190
same,fold change of IC50 against reference virus,nevirapine,680
same,fold change of IC50 against reference virus,efavirenz,270
"HIV-1 isolate 201 (reverse transcriptase changes: K102Q S162C G190T K277R I293V, study 55)",fold change of IC50 against reference virus,delavirdine,0.1
same,fold change of IC50 against reference virus,nevirapine,356
same,fold change of IC50 against reference virus,efavirenz,150
"HIV-1 isolate 245 (reverse transcriptase changes: K11T K20R V21I V35T T39R D123N T165I K173S D177E V179I Y181C G196E I202V Q207A R211K V245Q E248D S251I K277R T286A E291D P294T, study 14)",fold change of IC50 against reference virus,delavirdine,17
same,fold change of IC50 against reference virus,nevirapine,148
same,fold change of IC50 against reference virus,efavirenz,0.7
"HIV-1 isolate 266 (reverse transcriptase changes: L100I K102Q S162C K277R, study 110)",fold change of IC50 against reference virus,delavirdine,30
same,fold change of IC50 against reference virus,nevirapine,3.1
same,fold change of IC50 against reference virus,efavirenz,10
"HIV-1 isolate 294 (reverse transcriptase changes: K102Q V106A S162C K277R I293V R358K V435I S468P K550G, study 27)",fold change of IC50 against reference virus,efavirenz,4
"HIV-1 isolate 327 (reverse transcriptase changes: K101E K102Q K103N S162C K277R I293V R358K V435I S468P K550G, study 27)",fold change of IC50 against reference virus,efavirenz,≥ 500
"HIV-1 isolate 339 (reverse transcriptase changes: K101E K102Q S162C G190S K277R, study 110)",fold change of IC50 against reference virus,delavirdine,1.4
same,fold change of IC50 against reference virus,nevirapine,500
same,fold change of IC50 against reference virus,efavirenz,≥ 500
"HIV-1 isolate 351 (reverse transcriptase changes: E138Q, study 50)",fold change of IC50 against reference virus,delavirdine,5
same,fold change of IC50 against reference virus,efavirenz,2.3
"HIV-1 isolate 354 (reverse transcriptase changes: K102Q S162C Y188L K277R, study 110)",fold change of IC50 against reference virus,delavirdine,9
same,fold change of IC50 against reference virus,nevirapine,500
same,fold change of IC50 against reference virus,efavirenz,109
"HIV-1 isolate 372 (reverse transcriptase changes: K102Q K103N S162C P236L K277R, study 53)",fold change of IC50 against reference virus,delavirdine,190
same,fold change of IC50 against reference virus,nevirapine,165
same,fold change of IC50 against reference virus,efavirenz,5
"HIV-1 isolate 377 (reverse transcriptase changes: K102Q K103R S162C I178V V179D K277R I293V K347R R358K V435I S468P, study 111)",fold change of IC50 against reference virus,delavirdine,27
same,fold change of IC50 against reference virus,nevirapine,16
same,fold change of IC50 against reference virus,efavirenz,19
"HIV-1 isolate 486 (reverse transcriptase changes: K102Q V108I S162C K277R I293V R358K V435I S468P K550G, study 27)",fold change of IC50 against reference virus,efavirenz,1
"HIV-1 isolate 527 (reverse transcriptase changes: K102Q S162C V179D K277R I293V R358K V435I S468P K550G, study 27)",fold change of IC50 against reference virus,efavirenz,1
"HIV-1 isolate 565 (reverse transcriptase changes: K122E Q161L H208Y F214L A272P K277R M357T A376T A400T N447S D460N S468T S519N, study 35)",fold change of IC50 against reference virus,stavudine,0.6
same,fold change of IC50 against reference virus,didanosine,1
"HIV-1 isolate 740 (reverse transcriptase changes: K102Q S162C Y188L K277R I293V R358K V435I S468P K550G, study 27)",fold change of IC50 against reference virus,efavirenz,≥ 500
"HIV-1 isolate 755 (reverse transcriptase changes: none, study 50)",fold change of IC50 against reference virus,delavirdine,1
same,fold change of IC50 against reference virus,efavirenz,1
"HIV-1 isolate 786 (reverse transcriptase changes: K102Q S162C Y181C K277R I293V R358K V435I S468P K550G, study 27)",fold change of IC50 against reference virus,efavirenz,2
"HIV-1 isolate 981 (reverse transcriptase changes: E138K, study 50)",fold change of IC50 against reference virus,delavirdine,6.3
same,fold change of IC50 against reference virus,efavirenz,1.4
"HIV-1 isolate 1036 (reverse transcriptase changes: K102Q K103N S162C K277R I293V R358K V435I S468P K550G, study 27)",fold change of IC50 against reference virus,efavirenz,33
"HIV-1 isolate 1053 (reverse transcriptase changes: D123E G141R R172K D177E V179D T200I Q207E R211K I293V P294Q E297K I375V V435I K550R A554T, study 140)",fold change of IC50 against reference virus,efavirenz,11
"HIV-1 isolate 1068 (reverse transcriptase changes: E138A, study 50)",fold change of IC50 against reference virus,delavirdine,8.8
same,fold change of IC50 against reference virus,efavirenz,1.7
"HIV-1 isolate 1094 (reverse transcriptase changes: L100I K101E K102Q S162C K277R I293V R358K V435I S468P K550G, study 27)",fold change of IC50 against reference virus,efavirenz,≥ 500
"HIV-1 isolate 1104 (reverse transcriptase changes: L100I D123E G141R R172K D177E V179D Y181C T200I Q207E R211K I293V P294Q E297K I375V V435I K550R A554T, study 140)",fold change of IC50 against reference virus,efavirenz,1000
"HIV-1 isolate 1107 (reverse transcriptase changes: A98G K102Q S162C K277R I293V R358K V435I S468P K550G, study 27)",fold change of IC50 against reference virus,efavirenz,4
"HIV-1 isolate 1120 (reverse transcriptase changes: K102Q K103N S162C Y181C K277R I293V R358K V435I S468P K550G, study 27)",fold change of IC50 against reference virus,efavirenz,130
"HIV-1 isolate 1122 (reverse transcriptase changes: K122E E138K Y188H F214L A272P K277R A376T A400T D460N S468T H483Y K512Q S519N, study 85)",fold change of IC50 against reference virus,efavirenz,1.9
"HIV-1 isolate 1129 (reverse transcriptase changes: K101E G190S, study 110)",fold change of IC50 against reference virus,delavirdine,3
same,fold change of IC50 against reference virus,stavudine,0.8
same,fold change of IC50 against reference virus,didanosine,1.2
same,fold change of IC50 against reference virus,nevirapine,580
same,fold change of IC50 against reference virus,zidovudine,1
"HIV-1 isolate 1201 (reverse transcriptase changes: L100I K103N K122E F214L A272P K277R A376T A400T K451R V458L D460N R461K S468P D471N H483Y K512Q S519N E529Q V559I, study 27)",fold change of IC50 against reference virus,efavirenz,8000
"HIV-1 isolate 1323 (reverse transcriptase changes: E138Y, study 50)",fold change of IC50 against reference virus,delavirdine,0.8
same,fold change of IC50 against reference virus,efavirenz,0.5
"HIV-1 isolate 1349 (reverse transcriptase changes: K101E K102Q S162C K277R I293V R358K V435I S468P K550G, study 27)",fold change of IC50 against reference virus,efavirenz,8
"HIV-1 isolate 1523 (reverse transcriptase changes: L100I K102Q S162C K277R I293V R358K V435I S468P K550G, study 27)",fold change of IC50 against reference virus,efavirenz,33
"HIV-1 isolate 1602 (reverse transcriptase changes: D67N K70R V75A K122E F214L T215F K219E A272P K277R, study 20)",fold change of IC50 against reference virus,stavudine,3.3
same,fold change of IC50 against reference virus,didanosine,2

# Fold change is the IC50 on the isolate divided by the IC50 on a reference virus; 1 = unchanged, higher = more resistant. Changes are given against the subtype B consensus. No active / inactive call. The values were gathered from many studies (numbered anew) with different assays, which the source does not name. Most viruses are clinical isolates; some are laboratory strains or clones with known resistance changes. Isolates with mixed residues are left out; stretches that were not sequenced show no change. Round top values that many isolates share are read here as limits; other very high values and 0.1 may be limits too.
